PubChem BioAssay AID1259414, Drosophila RNAi Screening Center – 2018

Aim: 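Genome-wide screen for host control of endosymbiont load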 (primary screen)
System: Drosophila JW18 cells infected with Wolbachia
Reagent: long dsRNA against Drosophila genes, 0.25 µg dsRNA per well of a 384-well plate
Time to read-out: 5 days
Challenge: cells persistently infected with Wolbachia before knock-down; no added drug
Measurement: 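Imaged fluorescence in situ signal for Wolbachia 23S rRNA per DAPI-counted host cell, given as a robust z-score within each plate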
Reading the numbers: Wolbachia per cell robust z: higher = more Wolbachia per host cell than the plate typical
Rule for the call: 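Active if absolute robust z reaches 1.5 in two or more of three replicates, leaving out multi- or no-target dsRNAs, genes unexpressed in JW18 and A1 wells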
The deposit covers about 24,000 reagents; this is a random part of those with a known target gene and a result. Of all reagents, about 1,210 (5%) were called active. 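Inactive calls also include excluded dsRNAs with several or no targets, genes unexpressed in JW18, and well A1, regardless of score.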 The numbers tell different reagents against one gene apart. Names joined by + are all predicted targets of the reagent.

CG8492 #1 → Wolbachia per cell robust z, rep 1 = -1.34; Wolbachia per cell robust z, rep 2 = 0.367; Wolbachia per cell robust z, rep 3 = 0.724; Call = inactive
CG8492 #2 → Wolbachia per cell robust z, rep 1 = -0.12; Wolbachia per cell robust z, rep 2 = -0.118; Wolbachia per cell robust z, rep 3 = -1.35; Call = inactive
Pss → Wolbachia per cell robust z, rep 1 = -0.226; Wolbachia per cell robust z, rep 2 = 0.579; Wolbachia per cell robust z, rep 3 = -0.455; Call = inactive
Gcn5 #1 → Wolbachia per cell robust z, rep 1 = 1.45; Wolbachia per cell robust z, rep 2 = 1.31; Wolbachia per cell robust z, rep 3 = 1.56; Call = inactive
Gcn5 #2 → Wolbachia per cell robust z, rep 1 = 1.58; Wolbachia per cell robust z, rep 2 = 1.07; Wolbachia per cell robust z, rep 3 = 1.9; Call = active
CG14301 → Wolbachia per cell robust z, rep 1 = -5.92; Wolbachia per cell robust z, rep 2 = -5.04; Wolbachia per cell robust z, rep 3 = -0.937; Call = inactive
CG34334 → Wolbachia per cell robust z, rep 1 = 0.518; Wolbachia per cell robust z, rep 2 = -0.013; Wolbachia per cell robust z, rep 3 = 0.00167; Call = inactive
CG12590 → Wolbachia per cell robust z, rep 1 = 0.443; Wolbachia per cell robust z, rep 2 = 0.523; Wolbachia per cell robust z, rep 3 = 0.71; Call = inactive
CG9395 #1 → Wolbachia per cell robust z, rep 1 = 0.711; Wolbachia per cell robust z, rep 2 = 0.235; Wolbachia per cell robust z, rep 3 = 0.671; Call = inactive
CG9395 #2 → Wolbachia per cell robust z, rep 1 = 0.319; Wolbachia per cell robust z, rep 2 = 0.133; Wolbachia per cell robust z, rep 3 = 0.809; Call = inactive
Sfp35C → Wolbachia per cell robust z, rep 1 = 0.0695; Wolbachia per cell robust z, rep 2 = -0.309; Wolbachia per cell robust z, rep 3 = 0.692; Call = inactive
CG2993 #1 → Wolbachia per cell robust z, rep 1 = -0.0743; Wolbachia per cell robust z, rep 2 = -1.92; Wolbachia per cell robust z, rep 3 = 0.142; Call = inactive
CG2993 #2 → Wolbachia per cell robust z, rep 1 = 0.207; Wolbachia per cell robust z, rep 2 = 0.284; Wolbachia per cell robust z, rep 3 = 0.0141; Call = inactive
CG2993 #3 → Wolbachia per cell robust z, rep 1 = 0.331; Wolbachia per cell robust z, rep 2 = 0.372; Wolbachia per cell robust z, rep 3 = -3.24; Call = inactive
CG42465 → Wolbachia per cell robust z, rep 1 = 1.02; Wolbachia per cell robust z, rep 2 = -0.51; Wolbachia per cell robust z, rep 3 = 0.033; Call = inactive
CG11694 #1 → Wolbachia per cell robust z, rep 1 = 0.641; Wolbachia per cell robust z, rep 2 = 0.0411; Wolbachia per cell robust z, rep 3 = -0.74; Call = inactive
CG11694 #2 → Wolbachia per cell robust z, rep 1 = -2.56; Wolbachia per cell robust z, rep 2 = -1.27; Wolbachia per cell robust z, rep 3 = -3.69; Call = inactive
CG11694 #3 → Wolbachia per cell robust z, rep 1 = 0.555; Wolbachia per cell robust z, rep 2 = -0.204; Wolbachia per cell robust z, rep 3 = 0.791; Call = inactive
CG5131 → Wolbachia per cell robust z, rep 1 = -1.32; Wolbachia per cell robust z, rep 2 = -6.6; Wolbachia per cell robust z, rep 3 = -0.0681; Call = inactive
CG16704 → Wolbachia per cell robust z, rep 1 = 0.0112; Wolbachia per cell robust z, rep 2 = -0.0293; Wolbachia per cell robust z, rep 3 = 0.366; Call = inactive
Sema5c #1 → Wolbachia per cell robust z, rep 1 = 1.43; Wolbachia per cell robust z, rep 2 = 0.212; Wolbachia per cell robust z, rep 3 = 1.03; Call = inactive
Sema5c #2 → Wolbachia per cell robust z, rep 1 = -1.34; Wolbachia per cell robust z, rep 2 = -1.78; Wolbachia per cell robust z, rep 3 = -0.878; Call = inactive
Exd2 #1 → Wolbachia per cell robust z, rep 1 = -0.716; Wolbachia per cell robust z, rep 2 = -1.56; Wolbachia per cell robust z, rep 3 = -0.175; Call = inactive
Exd2 #2 → Wolbachia per cell robust z, rep 1 = 0.102; Wolbachia per cell robust z, rep 2 = 0.418; Wolbachia per cell robust z, rep 3 = 0.369; Call = inactive
CG17807 #1 → Wolbachia per cell robust z, rep 1 = -1.35; Wolbachia per cell robust z, rep 2 = -1.61; Wolbachia per cell robust z, rep 3 = -4.23; Call = active
CG17807 #2 → Wolbachia per cell robust z, rep 1 = 1.33; Wolbachia per cell robust z, rep 2 = 2.89; Wolbachia per cell robust z, rep 3 = -0.0657; Call = inactive
CG9988 → Wolbachia per cell robust z, rep 1 = 0.111; Wolbachia per cell robust z, rep 2 = -4.53; Wolbachia per cell robust z, rep 3 = -4.96; Call = inactive
Smg5 #1 → Wolbachia per cell robust z, rep 1 = -1.34; Wolbachia per cell robust z, rep 2 = -0.178; Wolbachia per cell robust z, rep 3 = -0.438; Call = inactive
Smg5 #2 → Wolbachia per cell robust z, rep 1 = -1.74; Wolbachia per cell robust z, rep 2 = -1.75; Wolbachia per cell robust z, rep 3 = -1.54; Call = active
Gr64b + Gr64c → Wolbachia per cell robust z, rep 1 = 0.268; Wolbachia per cell robust z, rep 2 = -0.463; Wolbachia per cell robust z, rep 3 = 0.754; Call = inactive

Called active, of those listed so far:
Gcn5 #2 → Wolbachia per cell robust z, rep 1 = 1.58; Wolbachia per cell robust z, rep 2 = 1.07; Wolbachia per cell robust z, rep 3 = 1.9; Call = active
CG17807 #1 → Wolbachia per cell robust z, rep 1 = -1.35; Wolbachia per cell robust z, rep 2 = -1.61; Wolbachia per cell robust z, rep 3 = -4.23; Call = active
Smg5 #2 → Wolbachia per cell robust z, rep 1 = -1.74; Wolbachia per cell robust z, rep 2 = -1.75; Wolbachia per cell robust z, rep 3 = -1.54; Call = active
